The values that follow come from a flash point compilation (Sun et al. 2020).

Each structure is given as a SMILES string.

With `CC(=O)CCl` [1-chloropropan-2-one], the flash point worked out at 40.00 °C. Compound `C1CN1` [aziridine] had a flash point of -11.00 °C. Consider `CC(C)OP(OC(C)C)OC(C)C` [tripropan-2-yl phosphite], for which the flash point worked out at 74.00 °C. Regarding `ClCCOP(OCCCl)OCCCl` [tris(2-chloroethyl) phosphite], the flash point came to 138.00 °C.
